Measured values published in patent US20140286960A1 (CANGENE, published 2014).

Target: Staphylococcus aureus alpha-hemolysin (Staphylococcus aureus, UniProt P09616 27-319)
Assay: cell-based or functional assay

B1: CAN24G4 monoclonal antibody (antibody, V domains shown)
VH: EVHLQQSGAELVKPGASVRLSCTGSGLDIKDTYIHWVKKRPEQGLEWIGRIDPANGITKYDPKFQGKATVTADTSSNTAYLQFSSLTSEDSAVYYCSSEYYPYPMDYWGQGTSVTVSS
VL: DIKMTQPPSSMYASLGERVTVTCKASQDISSFLTWFQQKPGKSPKILIYRANRVVDGVPSRFSGSGSGHDYSLTISSLESEDMGIYYCLQYDEFPWTFGGGTKLEIK
Question: How did the “NT50 relative to the sheep anti-alpha hemolysin pAb (Toxin Tech)” value turn out when B1 was run?
Answer: Its value is 13 fold.
